{"source": "patent US20150374673A1", "about": "“Combination Therapy for the Treatment of Nosocomial Pneumonia” (priority 2013, published 2015)", "test_system": "P. aeruginosa", "assay": "Neutropenic thigh infection model (CD-1 mice), exposure response of ceftazidime q2h and avibactam", "type": "in vivo, Pseudomonas aeruginosa", "procedure": "CD-1 neutropenic mice were infected with appr. 10^6 cfu β-lactamase-producing P. aeruginosa strains in the thigh.\nOutbred female CD-1 mice (Charles River, Netherlands), 4 to 5 weeks old, weighing 20 to 25 g were used in the experiments. Granulocytopenia was induced by two doses of cyclophosphamide s.c.: one at four days (150 mg/kg) and the other at one day (100 mg/kg) before the infection experiment.\nThe neutropenic mice were infected with 2 P. aeruginosa strains per animal, one in the left and one in the right thigh. 0.05 mL of bacterial suspension consisting of approximately 10^5-10^6 bacteria was inoculated intramuscularly. […] All dosing regimens were performed in at least two animals. At t=0 h, 2 mice were humanely sacrificed to determine the initial inoculum just before treatment. All other animals were sacrificed at t=24 h unless the welfare of the animals indicated earlier termination was necessary, following animal welfare regulations. Thighs were taken and moved to a pre-cooled 10-mL plastic tube (Transport Tube, Omnilabo, NL) ? containing 2 mL phosphate buffered saline (PBS; NaCl 8.00 g/L, Na2HPO42H2 1.44 g/L, KH2PO4 0.26 g/L, pH 7.2-7.4). Subsequently thighs were ground using an Ultra-Turrax (IKA Labortechnik, Germany). A tenfold dilution series was prepared and 3×10 μL plated (Chromagar, Biomerieux, NL) per dilution. The following day, colonies were counted and the number of cfu per thigh calculated. The drug effect was then determined as the difference between the log10[cfu/thigh] values at t=24 h and t=0 h (mean value of 2 mice) expressed as “dcfu”.\nThe amount of avibactam administered varied in frequency and dose. […] The drug effect was determined as the difference between the log10 [cfu/thigh] values at t=24 h and t=0 h (mean value of 2 mice) expressed as dcfu. Free drug concentrations were used in all calculations. […] Oral presentation at the ? 52nd Interscience Conference on Antimicrobial Agents and Chemotherapy, San Francisco, Calif. Abstract #A-1760).", "data": [{"molecule": "NC(=O)[C@@H]1CC[C@@H]2CN1C(=O)N2OS(=O)(=O)[O-].[Na+]", "note": "[avibactam, [(2S,5R)-2-carbamoyl-7-oxo-1,6-diazabicyclo[3.2.1]octan-6-yl]hydrogen sulfate]", "values": [{"measurement": "Emax model Hill slope", "setting": "strain 1, SE between brackets", "result": "≈′−0.35)"}, {"measurement": "Emax model Hill slope", "setting": "strain 5, SE between brackets", "result": "−1.185 (0.86)"}, {"measurement": "Emax model Hill slope", "setting": "strain 7, SE between brackets", "result": "−1.01 (0.41)"}, {"measurement": "Emax model Hill slope", "setting": "strain 11, SE between brackets", "result": "−1.98 (0.86)"}, {"measurement": "Emax model Hill slope", "setting": "strain 18, SE between brackets", "result": "−2.60 (1.16)"}, {"measurement": "Emax model Hill slope", "setting": "strain 19, SE between brackets", "result": "−5.75 (3.57)"}]}]}
